How the values were obtained:
[1] = test system: C57BL/6J mice; conditions: mice immunized with CRM197-23* in Freund's adjuvant; glycan microarray, pooled sera
[2] = test system: capsular polysaccharide of carbapenem-resistant K. pneumoniae strains; conditions: rabbits n=3, s.c., 10 μg sugar equivalent in alum at day 0 and 14; sera day 0, 14, 21

Question: What does the source list for `C[C@@H]1O[C@@H](O[C@H]2C(C(=O)O)O[C@H](OC3C(O)[C@@H](O)[C@H](C)O[C@H]3OC3C(O)[C@@H](O)[C@H](C)O[C@H]3OC3C(O)[C@@H](O)[C@H](C)O[C@H]3OCCCCCN)C(O)[C@H]2O[C@@H]2OC(CO)[C@H](O)[C@H](O)C2O)C(O)C(O)[C@H]1O` (stereo partly drawn) [hexasaccharide 23*, 5-Amino-pentanyl α-L-rhamnopyranosyl-(1→4)-[P3-D-galactopyranosyl-(1→3)]-α-D-galactopyranosyluronic acid-(1→2)-α-L-rhamnopyranosyl-(1→2)-α-L-rhamnopyranosyl-(1→2)-α-L-rhamnopyranoside]?
Answer: hexasaccharide-specific IgG subclasses (IgG1, IgG2a, IgG3) contribution to IgG titer [1]: IgG1 and IgG2a were contributed bulk of the antigen-specific IgG titer; immunogenicity / antibody titer (end point titer, total IgG) by ELISA [2]: immunogenic in rabbits and generates cross reactive antibodies
